Laboratory results published in paper PMC7281072 (Cancers, 2020).

Tests used:
[1] = test system: OVCAR-5 human ovarian adenocarcinoma xenograft; assay: OVCAR-5 human ovarian xenograft antitumor efficacy; type: in vivo, CB17 SCID mice
[2] = test system: SKOV-3 human ovarian adenocarcinoma xenograft; assay: SK-OV-3 human ovarian xenograft antitumor efficacy; type: in vivo, CB17 SCID mice
[3] = OVCAR-5 xenograft, single i.p. dose on d-1

O=C(O)CCOc1ccc(N(CCCl)CCCl)cc1
antitumor activity (in words) ([1]; OVCAR-5-bearing mice): no significant antitumor activity | Cures (mice alive for 120 days after tumor inoculation) [1, 3]: 0/5 | TI% (Tumor Inhibition) [1, 3]: 6.22% | Response Rate (RR) ([1]; OVCAR-5 xenograft, tumor volume regression >50%): 0% | antitumor activity (in words) ([2]; SK-OV-3-bearing mice): no significant antitumor activity | Response Rate (RR) ([2]; SK-OV-3 xenograft, tumor volume regression >50%): 0%
